# Potato spindle tuber viroid, loop 15: variant abundance in plants

From the data files of Wu et al. 2024, doi:10.1371/journal.ppat.1012142.

Region: loop 15 of PSTVd (intermediate strain), upper and lower strand joined, each 5' to 3', the first 7 letters being the upper strand, closing pairs included. Wild type: GGAAACCGCUACUAC. Varied positions (N): GGAAACCGNNNNNNC.

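A pool of all variants was put on leaves of three Nicotiana benthamiana plants. Progeny were sequenced from the inoculated region (day 5), the margin of the inoculated leaf (day 10) and systemic leaves (day 12).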

Numbers give reads per thousand; 0 = not seen among the reads, higher = more abundant.
Each value is the mean of three plants.
"Pool" is the share in the plasmid pool used as inoculum, on the same scale.
The inoculated region was read from the minus strand, the other sites from the plus strand.
Samples held 43,870 to 66,106 reads, so the smallest values rest on one or two reads.
Sequences that differ at fixed positions probably stem from PCR or sequencing errors, and defective variants can be carried along by functional ones.
Wild type was 33.9 per thousand in the pool and the most common sequence in every sample (inoculated region 202, 200, 159; leaf margin 724, 746, 710; systemic leaves 856, 883, 880).

{"sequence": "GGAAACCGGUGUCAC", "pool": "0.256", "inoculated region": 0.0977, "leaf margin": 0.00668, "systemic leaves": 0.00537}
{"sequence": "GGAAACCGAUGACUC", "pool": "0.240", "inoculated region": 0.118, "leaf margin": 0.0187, "systemic leaves": 0}
{"sequence": "GGAAACCGUGUACAC", "pool": "0.192", "inoculated region": 0.115, "leaf margin": 0.0134, "systemic leaves": 0}
{"sequence": "GGAAACCGGCCGCAC", "pool": "0.208", "inoculated region": 0.0900, "leaf margin": 0, "systemic leaves": 0}
{"sequence": "GGAAACCGUACCAAC", "pool": "0.224", "inoculated region": 0.101, "leaf margin": 0, "systemic leaves": 0}
{"sequence": "GGAAACCGUAUGUCC", "pool": "0.240", "inoculated region": 0.0828, "leaf margin": 0.0128, "systemic leaves": 0}
{"sequence": "GGAAACCGCAAUUUC", "pool": "0.288", "inoculated region": 0.422, "leaf margin": 0.0713, "systemic leaves": 0.0518}
{"sequence": "GGAAACCGCCACACC", "pool": "0.272", "inoculated region": 0.0900, "leaf margin": 0.0141, "systemic leaves": 0}
{"sequence": "GGAAACCGCGAUCUC", "pool": "0.176", "inoculated region": 0.305, "leaf margin": 0.154, "systemic leaves": 0.0161}